A mixed list of measured activities; the numbers were collected in NIAID ChemDB.

All rows: whole-cell or culture tests; organism: Rhinovirus; method: cytopathic effect; read-out: EC50

Neighbouring rows are from separate reports.

| smiles | cell line | strain or isolate | result |
|---|---|---|---|
| C#CCOc1cc(OC)ccc1-c1cc(N(CC)CC)no1 | HeLa | Serotype 45 (group A) | >40 µM |
| CSc1ccc(Cc2ccc(S(C)(=O)=O)cn2)cc1 | HeLa | TYPE 1A | 5 µg/mL |
| CC(=O)c1ccc(Oc2ccc(C#N)cn2)cc1 | HeLa | TYPE 1A | 210 µM |
| CCN(CC)c1cc(-c2ccc(OC)cc2OC)on1 | HeLa | Serotype 2 | 2.1 µM |
| CSc1nsc(-c2ccc(OCCCCOc3ccc(C#N)cc3)cc2)c1C#N | HELA-OHIO | Serotype 45 (group A) | >2 µM |
| Cc1ccc(C(=O)CCCCOc2ccc(C#N)cc2)cc1 | HeLa | Serotype 14 | 43.3 µM |
| CS(=O)(=O)c1ccc(NCc2ccc(Cl)c(Cl)c2)nc1 | HeLa | TYPE 33 | 0.6 µg/mL |
| CSc1nsc(-c2ccc(OCCOc3ccc(C#N)cc3)cc2)c1C#N | HELA-OHIO | Serotype 9 (group B) | >2 µM |
| CCOC(=O)c1ccc(OCCCCC(=O)c2ccc(C)c(Cl)c2)cc1 | HeLa | Serotype 14 | 140 µM |
| CS(=O)(=O)c1ccc(Oc2ccc(C(=O)c3ccccc3)cc2)nc1 | HeLa | TYPE 9 | 5 µg/mL |
| CCOc1cc(OC)ccc1-c1cc(N(CC)CC)no1 | HeLa | Serotype 63 (group B) | >90 µM |
| CCOc1nc2cc(OCCC3CCN(c4ccc(C)nn4)CC3)ccc2o1 | MRC-5 | Serotype 2 | 0.045 µg/mL |
| Cc1c(-c2ccccc2)n(-c2cccc(F)c2)c2ccc(C(C)C)cc2c1=O | HELA-OHIO | Clinical isolate | 0.017 µg/mL |
| Cc1ccc(CCCOc2c(C)cc(-c3nnn(C)n3)cc2C)nn1 | HeLa | serotypes 2 14 1A 1B 6 21 22 15 25 30 50 67 89 86 41 | 0.05 µg/mL |
| CCCNc1nc2ccc(OCCC3CCN(c4ccc(C)nn4)CC3)cc2s1 | MRC-5 | Serotype 2 | 0.131 µg/mL |
| CS(=O)(=O)c1ccc(Oc2ccc(Cl)c(Cl)c2)nc1 |  | 89 | 4.1 µM |
| COc1ccc(-c2snc(SC)c2C#N)cc1 | HELA-OHIO | Serotype 86 (group A) | >12 µM |
| COc1ccc(-c2cc(N3CCCC3)no2)c(O)c1 | HeLa | Serotype 9 (group B) | >384 µM |
| CCOC(=O)c1cc(Cl)c(OCCCCC(=O)c2ccc(Cl)cc2)c(Cl)c1 | HeLa | Serotype 14 | 7.6 µM |
| Cc1cc(-c2noc(C(F)(F)F)n2)cc(C)c1OCCCc1ccc(C(C)(F)F)nn1 | HeLa | serotypes 3 4 5 9 16 18 38 66 75 67 | 0.02 µg/mL |
| CS(=O)(=O)c1ccc(Cc2ccc(Cl)c(Cl)c2)nc1 | HeLa | TYPE 39 | 5 µg/mL |
| CSc1nsc(-c2ccc(OC(C)(C)C)cc2)c1C#N | HELA-OHIO | Serotype 14 (group A) | >40 µM |
| CCOC(=O)c1ccc(OCCC2CCN(c3ccc(C)nn3)CC2)cc1 | WI-38 | Serotype 16 | <0.1 µg/mL |
| N#Cc1ccc(Oc2ccc(Cl)c(Cl)c2)nc1 | HeLa | TYPE 2 | 5 µM |
| N#Cc1cc([N+](=O)[O-])ccc1Oc1ccc(Cl)c(Cl)c1 | HeLa | TYPE 1A | 0.1 µg/mL |
| O=C(CCCCOc1ccc(C2=NCCO2)cc1)c1ccc(Cl)cc1 | HeLa | Serotype 14 | 57 µM |
| CCc1nc(-c2cc(C)c(OCCCc3cc(COC)no3)c(C)c2)no1 | HeLa | Serotype 14 | 0.045 µg/mL |
| Cc1ccc(C(=O)CCCCOc2ccc(C3=NCCO3)cc2)cc1Cl | HeLa | Serotype 14 | 43.4 µM |
| CCOc1nc2ccc(OCCCC3CCN(c4ccc(Cl)nn4)CC3)cc2o1 | MRC-5 | Serotype 2 | 0.004 µg/mL |
| CS(=O)(=O)c1ccc(NCc2ccc(C(F)(F)F)cc2)nc1 | HeLa | TYPE 64 | 1.6 µg/mL |
| CS(=O)(=O)c1cccnc1Oc1ccc(C(=O)c2ccccc2)cc1 | HeLa | TYPE 64 | >10 µg/mL |
| CCc1ccc(CCCOc2c(C)cc(-c3noc(C)n3)cc2C)nn1 | HeLa | serotypes 3 4 5 9 16 18 38 66 75 67 | 0.0556 µg/mL |
| Cc1c(-c2ccccc2)n(-c2ccc(F)cc2)c2ccc(C(C)C)cc2c1=O | HELA-OHIO | TYPE 5 | >2 µg/mL |
| Cc1cc(OCCCc2ccc(CO)nn2)cc(C)c1-c1noc(C(F)F)n1 | HeLa | serotypes 3 4 5 9 16 18 38 66 75 67 | 0.15 µg/mL |
| CCN(CC)c1cc(-c2ccc(O)cc2O)on1 | HeLa | Serotype 2 | >121 µM |
| CSc1ccc(C(=O)CCCCOc2ccc(C3=NCCO3)cc2)cc1 | HeLa | Serotype 2 | >271 µM |
| CCOc1noc2cc(OCCC3CCN(c4nnc(C)s4)CC3)ccc12 | MRC-5 | Serotype 2 | 0.007 µg/mL |
| CCOc1ccc(-c2cc(N(CC)CC)no2)c(O)c1 | HeLa | Serotype 2 | >362 µM |
| CSc1nsc(-c2ccc(OCc3ccccc3)cc2)c1C#N | HELA-OHIO | Serotype 63 (group B) | 10 µM |
| CS(=O)(=O)c1ccc(Cc2ccc(Cl)cc2)nc1 | HeLa | TYPE 1A | 0.3 µg/mL |
| CSc1nsc(-c2ccc(OCCOc3ccccc3)cc2)c1C#N | HELA-OHIO | Serotype 59 (group B) | >20 µM |
| CSc1nsc(-c2ccccc2)c1C#N | HELA-OHIO | Serotype 86 (group A) | >80 µM |
| CSc1nsc(-c2ccc(OCCCOc3ccc(C#N)cc3)cc2)c1C#N | HELA-OHIO | Serotype 86 (group A) | >2 µM |
| CCOc1cc(CCCOc2c(C)cc(-c3noc(C)n3)cc2C)on1 | HeLa | Serotype 50 | 0.07 µg/mL |
| CCOC(=O)c1ccc(OCCCCC(=O)c2ccc(C)cc2)cc1 | HeLa | Serotype 14 | 2.6 µM |
| Cc1nc(-c2cc(C)c(OCCCc3cc(C4CC4)no3)c(C)c2)no1 | HeLa | Serotype 30 | 0.048 µg/mL |
| CCOC(=O)c1ccc(OCCOc2ccc(-c3snc(SC)c3C#N)cc2)cc1 | HELA-OHIO | Serotype 9 (group B) | >2 µM |
| O=C(CCCCOc1ccc(C2=NCCO2)cc1)c1ccc(F)cc1 | HeLa | Serotype 2 | >293 µM |
| Cc1ccc(N2CCC(CCOc3ccc4nc(C)oc4c3)CC2)nn1 | MRC-5 | Serotype 1A | 0.179 µg/mL |
| CCn1c2c(c(=O)c3cc(C(C)C)ccc31)Cc1ccccc1-2 | HELA-OHIO | 31/41F | 0.29 µg/mL |
| Cc1ccc(C(=O)CCCCOc2ccc(C3=NCCO3)cc2)cc1 | HeLa | Serotype 14 | 5.6 µM |
| COc1nc2ccc(OCCC3CCN(c4ccc(C)nn4)CC3)cc2s1 | MRC-5 | Serotype 14 | 0.006 µg/mL |

Again, the opening 8 rows:

| smiles | cell line | strain or isolate | result |
|---|---|---|---|
| C#CCOc1cc(OC)ccc1-c1cc(N(CC)CC)no1 | HeLa | Serotype 45 (group A) | >40 µM |
| CSc1ccc(Cc2ccc(S(C)(=O)=O)cn2)cc1 | HeLa | TYPE 1A | 5 µg/mL |
| CC(=O)c1ccc(Oc2ccc(C#N)cn2)cc1 | HeLa | TYPE 1A | 210 µM |
| CCN(CC)c1cc(-c2ccc(OC)cc2OC)on1 | HeLa | Serotype 2 | 2.1 µM |
| CSc1nsc(-c2ccc(OCCCCOc3ccc(C#N)cc3)cc2)c1C#N | HELA-OHIO | Serotype 45 (group A) | >2 µM |
| Cc1ccc(C(=O)CCCCOc2ccc(C#N)cc2)cc1 | HeLa | Serotype 14 | 43.3 µM |
| CS(=O)(=O)c1ccc(NCc2ccc(Cl)c(Cl)c2)nc1 | HeLa | TYPE 33 | 0.6 µg/mL |
| CSc1nsc(-c2ccc(OCCOc3ccc(C#N)cc3)cc2)c1C#N | HELA-OHIO | Serotype 9 (group B) | >2 µM |

ECn: concentration that inhibits the pathogen or its effect by n%. Blank or dashed fields: not listed here.